Assay results taken from patent US11510929B2, “Mitigation of epileptic seizures by combination therapy using benzodiazepines and neurosteroids” (dated 2022).

What was measured:
hippocampal neurons [1] = test: Mitigation of TETS-induced Ca2+ dysregulation, agents added 10 min prior to TETS (FLIPR Fluo-4); conditions: for effect on Phase I or Phase II Ca2+ dysregulation, single agent: 0.1 μM by itself; for effect on Phase I plateau response: single agent, up to 1 μM
hippocampal neurons [2] = test: Mitigation of TETS-induced Phase II Ca2+ response, agents added post-TETS (FLIPR Fluo-4); conditions: post-TETS addition, TETS 3 μM; for effect on TETS-induced decreased Ca2+ oscillation frequency: 0.1 μM each agent
TETS-intoxicated animals = test: TETS-induced seizures and death in mice; conditions: for TETS-intoxicated animals protected from death, pretreatment: 0.1 mg/kg i.p. 10 minutes before TETS injection
[3] = pre-exposure 0.03-1 μM, TETS 3 μM

## CN1C(=O)CN=C(c2ccccc2)c2cc(Cl)ccc21
Hippocampal neurons [1]
  effect on Phase I or Phase II Ca2+ dysregulation, single agent: minimal effects
Hippocampal neurons [1]; 1 μM
  effectiveness alone at the highest concentration tested: neither diazepam nor allopregnanolone alone was fully effective
Hippocampal neurons [1]; 0.1, 0.3, or 1 μM
  effect on basal spontaneous Ca2+ oscillations: attenuation in the amplitude of basal spontaneous Ca2+ oscillations
Hippocampal neurons [1]; [3]
  effect on Phase I integrated rise in Ca2+ induced by TETS: small concentration-dependent reduction
  effect on Phase II frequency and amplitude effects of TETS: partial inhibition
Hippocampal neurons [1]; pre-exposure, TETS 3 μM
  concentration at which effect on Phase II amplitude reached significance: 0.1 µM
  concentration at which reduction of Phase I integrated rise reached statistical significance: 1 µM
Hippocampal neurons [1]; TETS 3 μM
  effect on Phase I plateau response: did not eliminate
Hippocampal neurons [2]
  effect on TETS-induced decreased Ca2+ oscillation frequency: without significant effect
TETS-intoxicated animals; 0.03 mg/kg immediately following the second clonic seizure, survival at 24 h
  TETS-intoxicated animals protected from death: < 10%
TETS-intoxicated animals; survival at 24 h
  TETS-intoxicated animals protected from death, pretreatment: < 30%
TETS-intoxicated animals; 5 mg/kg, i.p., immediately following the second clonic seizure
  rescue from TETS-induced death: rescued

## C[C@]12N[C@H](Cc3ccccc31)c1ccccc12
Hippocampal neurons [1]; 1 μM
  effect on basal Ca2+ oscillations: slightly suppressed
Hippocampal neurons [1]; 1 μM, preincubation 10 min, TETS 3 μM
  effect on TETS-induced Phase I and Phase II Ca2+ responses: attenuated both Phase I and Phase II effects of TETS

## CC(=O)[C@H]1CC[C@H]2[C@@H]3CC[C@H]4C[C@H](O)CC[C@]4(C)[C@H]3CC[C@]12C
Hippocampal neurons [1]
  mitigation of Phase I response induced by TETS compared with diazepam: more effective
  effect on Phase I or Phase II Ca2+ dysregulation, single agent: minimal effects
Hippocampal neurons [1]; 1 μM
  Phase II effect of TETS on amplitude: completely reversed
  effect on TETS response in Phase I: partially attenuated
  effectiveness alone at the highest concentration tested: neither diazepam nor allopregnanolone alone was fully effective
Hippocampal neurons [1]; 0.1-1 μM
  effect on basal spontaneous Ca2+ fluctuations: concentration-dependent suppression
Hippocampal neurons [1]; 0.3 and 1 μM
  effect on Phase II effect of TETS on frequency and amplitude: inhibited
Hippocampal neurons [1]; TETS 3 μM
  effect on Phase I plateau response: without eliminating
Hippocampal neurons [2]; 0.1 μM alone, p<0.01
  decrease of TETS-induced Ca2+ oscillation amplitude: 20%
Hippocampal neurons [2]
  effect on TETS-induced decreased Ca2+ oscillation frequency: without significant effect
TETS-intoxicated animals; survival at 24 h
  TETS-intoxicated animals protected from death, pretreatment: 50%
TETS-intoxicated animals; post-administration 0.03 mg/kg
  protection from death compared with low dose diazepam: no more efficacious than low dose diazepam
